Anti-infective test results gathered from many reports (values: NIAID ChemDB through PubChem).

Shared fields: growth or infection tests; species: Hepatitis C virus; measure: EC50

a–b is a range or a potency band.

structure,strain,mutations,cell line,read by,result
NC(=S)Nc1cccc(OCCCCCOc2ccccc2-c2cc(F)cc(F)c2)c1,,,Ava5-EG(delta4AB)SEAP,reporter gene / fluorescence,0.001–1 µM
CC(C)(C)OC(=O)N1CCn2c(c(C3CCCCC3)c3ccc(C(=O)NS(C)(=O)=O)cc32)-c2ccccc21,,,Huh7,replicon,0.01–1 µM
CC(C)N(C(=O)c1ccc(Cl)cc1Cl)c1cc(-c2ccc(-c3cn4ccsc4n3)cc2)sc1C(=O)O,1a,,,luciferase / replicon,0.1–0.5 µM
COCC(COC)N(C(=O)C1CCC(C)CC1)c1cc(-c2ccc(-c3cc4ncccn4n3)cc2)sc1C(=O)O,1a,,,replicon / ELISA,0.001–0.0049 µM
COC1c2ccccc2-c2c(C3CCCCC3)c3ccc(C(=O)O)cc3n21,,,Huh7,replicon,>10 µM
Nc1ccnc2cc(-c3ccc(-c4cc(N(C(=O)C5CCC(C(F)(F)F)CC5)C5CCOCC5)c(C(=O)O)s4)cc3)nn12,1a,,,replicon / ELISA,0.005–0.0099 µM
CC1CN(C(=O)C2=Cc3ccccc3C3=C(C4CCCCC4)c4cc(C(=O)NS(=O)(=O)N(C)C)ccc4C3C2)CC(C)N1,,,Huh7,replicon,0.01–1 µM
CC(=O)N1c2cccc(O)c2NC2=C(C(=O)CC(C)(C)C2)C1c1ccc(OCc2ccncc2)cc1Cl,1b,,,luciferase / reporter gene / replicon,8.24 µM
CC(C)N(C(=O)c1ccc(Cl)cc1F)c1cc(-c2ccc(-c3cn4ccccc4n3)cc2)sc1C(=O)O,1b,,,replicon / ELISA,0.1–0.5 µM
CCCN(CCC)c1ccc2c(c1)Cc1cc(NC(N)=S)ccc1-2,,,Ava5-EG(delta4AB)SEAP,reporter gene / fluorescence,0.001–1 µM
CCCCCCCCOc1ccc(N(C(=O)COC(C)=O)c2nc(-c3cccnc3)cs2)cc1,,,,,<1 µM
CC1CCC(C(=O)N(c2cc(-c3ccc(-c4cc5nccc(N)n5n4)cc3)sc2C(=O)O)C2CCOCC2)CC1,1a,,,replicon / ELISA,0.001–0.0049 µM
CCCCCOc1ccc(N(C(=O)CN(C)C)c2nc(-c3cccnc3)cs2)cc1C(F)(F)F,,,,,<1 µM
Cc1cc(Br)ccc1C(=O)N(c1cc(-c2ccc(-c3cc4ncccn4n3)cc2)sc1C(=O)O)C(C)C,1a,,,replicon / ELISA,0.1–0.5 µM
CC1(C)CC(=O)C2=C(C1)Nc1c(O)cccc1N(C(=O)c1cnccn1)C2c1ccc(OC(F)(F)c2ccccc2)cc1F,1b,,,luciferase / reporter gene / replicon,9.49 µM
CCOCCN(C(=O)C1CCC(C)CC1)c1cc(-c2ccc(-c3cn4ccccc4n3)cc2)sc1C(=O)O,1a,,,replicon / ELISA,0.01–0.049 µM
Cn1nc(C(=O)N2c3cccc(O)c3NC3=C(C(=O)CC(C)(C)C3)C2c2ccc(OCc3ccccc3)cc2F)cc1-c1cccs1,1b,,,luciferase / reporter gene / replicon,2.19 µM
COc1c(-c2ccc3cc(NS(C)(=O)=O)ccc3c2)cc(-n2ccc(=O)[nH]c2=O)cc1C(C)(C)C,genotype 1b,S282T,Huh7,luciferase,0.0011 µM
COCCN(C(=O)C1CCC(C)CC1)c1cc(-c2ccc(-c3cc4nccc(N)n4n3)cc2)sc1C(=O)O,1a,,,replicon / ELISA,0.001–0.0049 µM
NC(=S)Nc1cccc(OCCCCCOc2ccc(-c3ccco3)cc2)c1,,,Ava5-EG(delta4AB)SEAP,reporter gene / fluorescence,0.001–1 µM
CC(C)N(C(=O)c1ccc(Cl)cc1Cl)c1cc(-c2ccc(-c3cc4ncccn4n3)cc2)sc1C(=O)O,1b,,,replicon / ELISA,0.01–0.05 µM
CCCCCCCCOc1ccc(N(C(N)=O)c2nc(-c3ccc(C(=O)N(C)C)nc3)cs2)cc1,,,,,>10 µM
COCCN(C(=O)C1CCC(C)CC1)c1cc(-c2ccc(-c3cn4ccsc4n3)cc2)sc1C(=O)O,1a,,,replicon / ELISA,0.01–0.049 µM
O=C(N[C@@H](C(=O)N1CCC[C@H]1c1ncc(-c2ccc(-c3ccc(-c4cnc([C@@H]5CCCN5C(=O)[C@H](NC(=O)C5CC5)c5ccccc5)s4)cc3)cc2)s1)c1ccccc1)C1CC1,genotype 1b,Y93H,Huh7.5,luciferase / reporter gene,0.001408 µM
CCOCCN(C(=O)C1CCC(C)CC1)c1cc(-c2ccc(-c3cc4nccc(N)n4n3)cc2)sc1C(=O)O,1a,,,replicon / ELISA,0.001–0.0049 µM
CC(C)N(C(=O)c1ccc(Cl)cc1F)c1cc(-c2ccc(-c3cc4ncccn4n3)cc2)sc1C(=O)O,1b,,,replicon / ELISA,0.01–0.05 µM
CCCCCCCCOc1ccc(N(C(C)=O)c2nc(-c3cccnc3)cs2)cc1,,,,,<1 µM
NC(=S)Nc1cccc(OCCCCCOc2ccc(Oc3ccccc3)cc2)c1,,,Ava5-EG(delta4AB)SEAP,reporter gene / fluorescence,0.001–1 µM
N#CC1C(=O)Cn2c(c(C3CCCCC3)c3ccc(C(=O)O)cc32)-c2ccccc21,,,Huh7,replicon,>10 µM
CCCCCCCCc1ccc(N(C(=O)OCCN(C)C)c2nc(-c3cccnc3)c(F)s2)cc1C(F)(F)F,,,,,<1 µM
CC(C)N(C(=O)c1ccc(Cl)cc1Cl)c1cc(-c2ccc(-c3cc4ncccc4o3)cc2)sc1C(=O)O,1b,,,luciferase / replicon,0.01–0.05 µM
COCCN(C(=O)C1CCC(C)CC1)c1cc(-c2ccc(-c3cn4ccccc4n3)cc2)sc1C(=O)O,1a,,,replicon / ELISA,0.01–0.049 µM
CC1(C)CC(=O)C2=C(C1)Nc1c(O)cccc1NC2c1ccncc1,1b,,,luciferase / reporter gene / replicon,>100 µM
O=C(O)c1sc(-c2ccc(-c3cn4ccccc4n3)cc2)cc1N(C(=O)C1CCC(C(F)(F)F)CC1)C1CCOCC1,1a,,,replicon / ELISA,0.05–0.099 µM
CCCCCCCCOc1ccc(N(C(N)=O)c2nc(-c3cccnc3)cs2)cc1C(F)(F)F,,,,,<1 µM
CC1(C)CC(=O)C2=C(C1)Nc1c(O)cccc1N(C(=O)CCC(=O)O)[C@@H]2c1ccc(OCc2ccccc2)cc1Cl,1b,,,luciferase / reporter gene / replicon,>100 µM
CCCCNC(=S)Nc1ccc2c(c1)Cc1cc(Br)ccc1-2,,,Ava5-EG(delta4AB)SEAP,reporter gene / fluorescence,0.001–1 µM
O=C(O)CCC(=O)N(c1ccc(OCCCCc2cccs2)c(C(F)(F)F)c1)c1nc(-c2cccnc2)c(F)s1,,,,,<1 µM
CC1CCCCN1C(=O)CCC(=O)N1c2cccc(O)c2NC2=C(C(=O)CC(C)(C)C2)C1c1ccc(OCc2ccccc2)cc1Cl,1b,,,luciferase / reporter gene / replicon,2.01 µM
COc1cc2c(cc1NC(N)=S)oc1ccccc12,,,Ava5-EG(delta4AB)SEAP,reporter gene / fluorescence,0.001–1 µM
CC1(C)CC(=O)C2=C(C1)Nc1c(O)cccc1N(C(=O)CC(=O)O)[C@@H]2c1ccc(Oc2ccccc2Br)cc1Cl,1b,,,luciferase / reporter gene / replicon,>100 µM
COC(=O)N[C@H](C(=O)N1CCCC1c1ncc(-c2ccc(-c3ccc(-c4cnc([C@@H]5CC(C)CN5C(=O)[C@@H](NC(=O)CO)C(C)C)[nH]4)cc3)cc2)[nH]1)C(C)C,1a,Y93C,Lunet,luciferase,0.0074 µM

A second listing of 4 rows from above:

| structure | strain | mutations | cell line | read by | result |
|---|---|---|---|---|---|
| NC(=S)Nc1cccc(OCCCCCOc2ccc(Oc3ccccc3)cc2)c1 |  |  | Ava5-EG(delta4AB)SEAP | reporter gene / fluorescence | 0.001–1 µM |
| Nc1ccnc2cc(-c3ccc(-c4cc(N(C(=O)C5CCC(C(F)(F)F)CC5)C5CCOCC5)c(C(=O)O)s4)cc3)nn12 | 1a |  |  | replicon / ELISA | 0.005–0.0099 µM |
| CC1(C)CC(=O)C2=C(C1)Nc1c(O)cccc1N(C(=O)c1cnccn1)C2c1ccc(OC(F)(F)c2ccccc2)cc1F | 1b |  |  | luciferase / reporter gene / replicon | 9.49 µM |
| COc1c(-c2ccc3cc(NS(C)(=O)=O)ccc3c2)cc(-n2ccc(=O)[nH]c2=O)cc1C(C)(C)C | genotype 1b | S282T | Huh7 | luciferase | 0.0011 µM |

ECn is the concentration giving n% inhibition of infection, replication or growth. Rows are shuffled and stem from different studies. Blank or dashed fields: not listed here.